Pooled drug test results. Numbers come from NIAID ChemDB, via PubChem.

All rows: tests on isolated targets; organism: HIV-1; protein: Protease; method: fluorescence; read-out: inhibition

Conditions beyond the fields shown may differ between rows. Percent inhibition refers to the dose given; in toxicity tests it is the harm to the cells.

SMILES,dose,result
O=C(CCc1ccccc1)C(F)Cc1ccccc1,270 µM,95%
O=c1cc(-c2ccc(O)c(O)c2)oc2cc(O)cc(O)c12,50 µg/mL,67.8%
NC(Cc1ccccc1)C(O)C(F)(F)C(N)Cc1ccccc1,0.005 µM,92%
C[C@@H]1O[C@@H](Oc2c(-c3cc(O)c(O)c(O)c3)oc3cc(O)cc(O)c3c2=O)[C@H](O)[C@H](O)[C@H]1O,50 µg/mL,50.4%
CC(C)[C@H](NC(=O)CN1CCOCC1)C(=O)N[C@@H](Cc1ccccc1)C(O)[C@H](Cc1ccccc1)NC(=O)[C@@H](NC(=O)OCc1ccccc1)C(C)C,0.005 µM,53%
COc1cc(CN2C(=O)N(Cc3ccc(O)c(OC)c3)N(Cc3ccc(OCCO)cc3)C[C@@H](O)[C@H]2Cc2ccccc2)ccc1O,0.0005 µM,84%
C/C(=C/CC[C@@H](C)[C@H]1CC[C@@]2(C)C3CCC4C(C)(C)C(=O)CC[C@@]45CC35CC[C@]12C)C(=O)O,10 ± 0.5 µg/mL,89.2%
COc1cc(CN2C(=O)N(Cc3ccc(O)c(OC)c3)N(c3ccc(OCCN4CCOCC4)cc3)C[C@@H](O)[C@H]2Cc2ccccc2)ccc1O,0.0005 µM,84%
C=C1C(C(C)C2CC=C(C)C(=O)O2)=CC[C@]2(C)C1C[C@]1(O)C=C3C=CC(=O)OC(C)(C)C3[C@H](O)CC21,10 ± 5.5 µg/mL,85%
COc1ccc(-c2cc(=O)c3c(O)cc(O)cc3o2)cc1,50 µg/mL,30.5%
CC(C)[C@H](NC(=O)OCc1ccccc1)C(=O)N[C@@H](CSc1ncccn1)[C@@H](O)[C@H](O)[C@H](CSc1ncccn1)NC(=O)[C@@H](NC(=O)OCc1ccccc1)C(C)C,0.1 µM,70%
COC(=O)[C@@H](NC(=O)[C@H](CC(C)C)NC(=O)[C@@H](NC(=O)CCCOc1ccc2ccc(OCCCC(=O)N[C@@H](CCC(=O)O)C(=O)N[C@@H](CC(C)C)C(N)=O)cc2n1)C(C)C)C(C)C,5.7 µM,20%
CC(C)[C@H](NC(=O)N(C)Cc1ccccn1)C(=O)N[C@@H](Cc1ccccc1)C(O)[C@H](Cc1ccccc1)NC(=O)[C@@H](NC(=O)N(C)Cc1ccccn1)C(C)C,0.05 µM,53%
O=c1c(O)c(-c2ccc(O)cc2)oc2cc(O)cc(O)c12,50 µg/mL,62.7%
CC(C)C(NC(=O)[C@@H](NC(=O)OCc1ccccc1)C(C)C)C(F)(F)C(=O)C(CC1CCCCC1)NC(=O)[C@@H](NC(=O)OCc1ccccc1)C(C)C,0.001 µM,70%
C=C1C2C[C@]3(O)C=C4C=CC(=O)OC(C)(C)C4[C@H](O)CC3[C@]2(C)CCC1(O)C(C)C1CC=C(C)C(=O)O1,10 ± 8.3 µg/mL,8.5%
CC(C)C[C@H](NC(=O)OCc1ccccc1)C(=O)N[C@@H](Cc1ccccc1)C(O)[C@H](Cc1ccccc1)NC(=O)[C@H](CC(C)C)NC(=O)OCc1ccccc1,0.1 µM,15%
O=C1N(Cc2ccc(O)cc2)[C@H](Cc2ccccc2)[C@H](O)CN(Cc2ccccc2)N1Cc1ccc(O)cc1,0.0005 µM,58%
CC(C)[C@H](NC(=O)OCc1cccnc1)C(=O)N[C@@H](Cc1ccccc1)[C@H](O)[C@H](O)[C@H](Cc1ccccc1)NC(=O)[C@@H](NC(=O)OCc1cccnc1)C(C)C,0.001 µM,69%
O=c1c(O)c(-c2ccccc2)oc2cc(O)cc(O)c12,50 µg/mL,27.1%
NS(=O)(=O)c1cccc(CN2C(=O)N(Cc3cccc(S(N)(=O)=O)c3)N(Cc3ccccc3)C[C@@H](O)[C@H]2Cc2ccccc2)c1,0.0005 µM,54.8%
C=C(C)C1CCC2[C@]3(CC[C@]4(C)/C(=C(\C)CC/C=C(/C)C(=O)O)CC[C@@]24C)C[C@]13CCC(=O)O,10 ± 8.8 µg/mL,56.1%
CC(C)[C@H](NC(=O)OCc1ccccc1)C(=O)N[C@@H](Cc1ccccc1)[C@H](O)[C@H](Cc1ccccc1)NC(=O)[C@@H](NC(=O)OCC1CCCN(C)C1)C(C)C,0.05 µM,79%
O=C(CCc1ccc(O)cc1)c1c(O)cc(O)cc1O,50 µg/mL,26.8%

For reference, 2 entries again:

SMILES	dose	result
C[C@@H]1O[C@@H](Oc2c(-c3cc(O)c(O)c(O)c3)oc3cc(O)cc(O)c3c2=O)[C@H](O)[C@H](O)[C@H]1O	50 µg/mL	50.4%
O=C1N(Cc2ccc(O)cc2)[C@H](Cc2ccccc2)[C@H](O)CN(Cc2ccccc2)N1Cc1ccc(O)cc1	0.0005 µM	58%